A mixed list of measured activities; the numbers were collected in NIAID ChemDB.

Shared fields: whole-cell or culture tests; agent: HIV-1; cell line: MT-4; measure: EC50

Neighbouring rows are from separate reports. Two numbers with a dash give a range or band. An empty or dashed field is not shown. ECn is the concentration giving n% inhibition of infection, replication or growth.

{"compound": "Cc1cc(/C=C/C#N)cc(C)c1Oc1nc(NC2CCN(Cc3cccc(Br)c3)CC2)nc2ccsc12", "strain or isolate": "IIIB", "changes": "NNRTI-resistant (RT E138K)", "method": "MTT", "result": "0.129 µM"}
{"compound": "Cc1cc(/C=C/C#N)cc(C)c1Oc1ccnc(S(=O)(=O)CC(=O)NCc2ccc(Br)cc2)n1", "strain or isolate": "IIIB", "method": "MTT", "result": "0.944 µM"}
{"compound": "C=CCN(C(=O)c1ccc(C2=NN3C(C(=O)c4ccc(F)cc4)Oc4ccccc4C3C2)cc1)C1CCCCC1", "strain or isolate": "LAI", "method": "GFP / reporter gene", "result": "1–10 µM"}
{"compound": "Cc1cc(/C=C/C#N)cc(C)c1Oc1ccnc(S(=O)(=O)CC(=O)Nc2ccc(Cl)cc2)n1", "strain or isolate": "IIIB", "changes": "L100I", "method": "MTT", "result": "0.009 µM"}
{"compound": "CCc1c(Cc2ccc(C)cc2)n(COCCc2ccccc2)c(=O)[nH]c1=O", "strain or isolate": "N119", "changes": "Y181C", "method": "MTT", "result": ">60 µM"}
{"compound": "CC1(C)CC=C(c2cn(-c3nccc(C(=O)NC4CCC(N5CC6CCC(C5)O6)CC4)n3)c3ccc(F)c([C@H](OC(C)(C)C)C(=O)O)c23)CC1", "strain or isolate": "NL4-3", "changes": "E92Q", "method": "luminescence", "result": "0.0044 µM"}
{"compound": "O=C1Nc2ccc(Cl)cc2[C@@](C#CC2CC2)(C(F)(F)F)O1", "changes": "Y188L", "method": "MTT", "result": "0.247 µM"}
{"compound": "C=C(C)COCn1c(Cc2c(F)c(F)cc(F)c2F)c(CC)c(=O)[nH]c1=O", "strain or isolate": "EFV-resistant (K103R V179D P225H)", "method": "MTT", "result": ">38 µM"}
{"compound": "Cc1cc(C#N)cc(C)c1Oc1nc(NC2CCN(Cc3ccc(S(N)(=O)=O)cc3)CC2C(=O)O)nc2ccsc12", "strain or isolate": "IIIB", "changes": "NNRTI-resistant (RT Y188L)", "method": "MTT", "result": "2.97 µM"}
{"compound": "CCOCn1c(Cc2ccccc2)c(C(C)C)c(=O)[nH]c1=O", "strain or isolate": "EFV-resistant (K103R V179D P225H)", "method": "MTT", "result": ">100 µM"}
{"compound": "O=c1c2ccccc2sn1/N=C/c1ccccc1O", "changes": "Y181C", "method": "MTT", "result": ">18 µM"}
{"compound": "Cc1cc(/C=C/C#N)cc(C)c1Oc1nc(NC2CCN(Cc3cccc(F)c3)CC2)nc2ccsc12", "strain or isolate": "RES056", "method": "MTT", "result": "0.126 µM"}
{"compound": "Cc1cc(-c2ccc(C#N)cc2)cc(C)c1Oc1ccnc(S(=O)(=O)CC(=O)Nc2ccc(Cl)cc2)n1", "strain or isolate": "IIIB", "method": "MTT", "result": "0.034 µM"}
{"compound": "CCc1c(Cc2cc(C)cc(C)c2)n(COCCc2ccccc2)c(=O)[nH]c1=O", "strain or isolate": "N119", "changes": "Y181C", "method": "MTT", "result": "5.6 µM"}
{"compound": "COc1cccc(CNC(=O)c2ccc(C3=NN4C(C(=O)c5ccc(F)cc5)Oc5ccccc5C4C3)cc2)c1", "strain or isolate": "LAI", "method": "GFP / reporter gene", "result": "1–10 µM"}
{"compound": "COc1ccc(/C=N/n2sc3ccc(C)cc3c2=O)cc1", "changes": "K103N + Y181C", "method": "MTT", "result": ">55 µM"}
{"compound": "Cc1nc2ccccc2c(-c2cc(F)c3c(c2C)CCCO3)c1[C@H](OC(C)(C)C)C(=O)O", "strain or isolate": "NL4-3", "changes": "Q148H", "method": "luminescence", "result": "0.015 µM"}
{"compound": "Cc1cc(-c2ccc(C#N)cc2)cc(C)c1Oc1ccnc(S(=O)(=O)C(C)C(=O)Nc2ccc(Cl)cc2)n1", "strain or isolate": "IIIB", "changes": "E138K", "method": "MTT", "result": "0.114 µM"}
{"compound": "COc1cc(/C=N/n2sc3ccc(C)cc3c2=O)ccc1O", "changes": "Y181C", "method": "MTT", "result": ">16 µM"}
{"compound": "Cc1cc(C#N)cc(C)c1Oc1nc(NC2CCC(NCc3ccc(S(C)(=O)=O)cc3)CC2)nc2ccsc12", "strain or isolate": "IIIB", "changes": "NNRTI-resistant (RT K103N)", "method": "MTT", "result": "0.355 µM"}
{"compound": "Cc1cc(-c2ccc(C#N)cc2)cc(C)c1Oc1ccnc(S(=O)(=O)CC(=O)Nc2ccc(F)cc2)n1", "strain or isolate": "IIIB", "changes": "Y181C", "method": "MTT", "result": "0.528 µM"}
{"compound": "CCc1c(Cc2ccc(OC)c(OC)c2)n(COCC2CC2)c(=O)[nH]c1=O", "strain or isolate": "N119", "changes": "Y181C", "method": "MTT", "result": ">100 µM"}
{"compound": "Cc1cc(/C=C/C#N)cc(C)c1Oc1ccnc(S(=O)(=O)CC(=O)NCCc2ccc(Br)cc2)n1", "strain or isolate": "IIIB", "method": "MTT", "result": "0.794 µM"}
{"compound": "Cc1ccc2sn(/N=C/c3ccc([N+](=O)[O-])cc3)c(=O)c2c1", "changes": "K103N + Y181C", "method": "MTT", "result": ">100 µM"}
{"compound": "CCc1c(Cc2ccc(C)cc2)n(COCc2ccccc2)c(=O)[nH]c1=O", "strain or isolate": "EFVR", "changes": "K103R/V179D/P225H", "method": "MTT", "result": ">44 µM"}
{"compound": "Cc1cc(/C=C/C#N)cc(C)c1Oc1ccnc(S(=O)(=O)CC(=O)NCCc2ccc(F)cc2)n1", "strain or isolate": "IIIB", "method": "MTT", "result": "0.163 µM"}
{"compound": "CCc1c(Cc2ccc(OC)c(OC)c2)n(COCc2ccccc2)c(=O)[nH]c1=O", "strain or isolate": "N119", "changes": "Y181C", "method": "MTT", "result": ">80 µM"}
{"compound": "Cc1cc(/C=C/C#N)cc(C)c1Oc1nc(NC2CCN(Cc3ccccn3)CC2)nc2ccsc12", "strain or isolate": "IIIB", "changes": "NNRTI-resistant (RT K103N)", "method": "MTT", "result": "0.00533 µM"}
{"compound": "Cc1ccc2sn(/N=C/c3ccccc3F)c(=O)c2c1", "changes": "Y181C", "method": "MTT", "result": ">18 µM"}
{"compound": "C=C(C)COCn1c(Cc2cccc(F)c2)c(CC)c(=O)[nH]c1=O", "strain or isolate": "EFV-resistant (K103R V179D P225H)", "method": "MTT", "result": ">100 µM"}
{"compound": "CCOC(=O)c1ccc(CN2CCC(Nc3nc(Oc4c(C)cc(/C=C/C#N)cc4C)c4sccc4n3)CC2)cc1", "strain or isolate": "RES056", "method": "MTT", "result": "0.165 µM"}
{"compound": "CC(C)[C@H](NC(=O)OCc1ccccn1)C(=O)N[C@@H](Cc1ccccc1)[C@@H](O)C[C@H](Cc1ccccc1)NC(=O)OCc1cccnc1", "strain or isolate": "NL4-3", "changes": "PR-L63P V82T I84V", "method": "p24", "result": "<3 µM"}
{"compound": "CC(C)CN(C[C@@H](O)[C@H](Cc1ccccc1)NC(=O)O[C@H]1CO[C@H]2OCC[C@H]21)S(=O)(=O)c1ccc2nc(NC3CCN(C4CCCC4)CC3)sc2c1", "strain or isolate": "r13205", "method": "reporter gene", "result": "26 nM"}
{"compound": "Cc1ccc2sn(/N=C/c3ccc(F)cc3)c(=O)c2c1", "method": "MTT", "result": ">15 µM"}
{"compound": "C=CCOCn1c(Cc2cc(F)ccc2F)c(CC)c(=O)[nH]c1=O", "strain or isolate": "N119 (Y181C)", "method": "MTT", "result": "14 µM"}
{"compound": "Cc1cc(/C=C/C#N)cc(C)c1Oc1ccnc(Nc2ccc(CN3CCN(S(=O)(=O)N(C)C)CC3)cc2)n1", "changes": "E138K", "method": "MTT", "result": "0.034 µM"}
{"compound": "CSc1ccc(C(=O)C2Oc3ccccc3C3CC(c4ccc(C(=O)NC5CCCC5)cc4)=NN23)cc1", "strain or isolate": "LAI", "method": "GFP / reporter gene", "result": "<1 µM"}
{"compound": "Cc1cc(-c2ccc(C#N)cc2)cc(C)c1Oc1ccnc(S(=O)(=O)CC(=O)Nc2ccc(Br)cc2)n1", "strain or isolate": "IIIB", "changes": "F227L V106A", "method": "MTT", "result": "4.301 µM"}
{"compound": "COc1ccc(OC)c(CNC(=O)c2ccc(C3=NN4C(C(=O)c5ccc(F)cc5)Oc5ccccc5C4C3)cc2)c1", "strain or isolate": "LAI", "method": "GFP / reporter gene", "result": "1–10 µM"}
{"compound": "Cc1cc(C#N)cc(C)c1Oc1ccnc(S(=O)(=O)CC(=O)Nc2ccc(C#N)cc2)n1", "strain or isolate": "IIIB", "changes": "Y188L", "method": "MTT", "result": "0.031 µM"}
{"compound": "O=C(NCc1cccc(F)c1)c1ccc(C2=NN3C(C(=O)c4ccc(F)cc4)Oc4ccccc4C3C2)cc1", "strain or isolate": "LAI", "method": "GFP / reporter gene", "result": ">10 µM"}
{"compound": "CCOCn1c(Cc2cc(C(F)(F)F)cc(C(F)(F)F)c2)c(CC)c(=O)[nH]c1=O", "strain or isolate": "EFV-resistant (K103R V179D P225H)", "method": "MTT", "result": ">100 µM"}

The first 3 rows once more:

compound	strain or isolate	changes	method	result
Cc1cc(/C=C/C#N)cc(C)c1Oc1nc(NC2CCN(Cc3cccc(Br)c3)CC2)nc2ccsc12	IIIB	NNRTI-resistant (RT E138K)	MTT	0.129 µM
Cc1cc(/C=C/C#N)cc(C)c1Oc1ccnc(S(=O)(=O)CC(=O)NCc2ccc(Br)cc2)n1	IIIB	-	MTT	0.944 µM
C=CCN(C(=O)c1ccc(C2=NN3C(C(=O)c4ccc(F)cc4)Oc4ccccc4C3C2)cc1)C1CCCCC1	LAI	-	GFP / reporter gene	1–10 µM